Results of single-concentration screens

Source: ChEMBL document CHEMBL3988442, “University of Dundee, Small-Polar-MMV Screening Library” (2021).

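Phenotypic screen: M. tuberculosis growth, glucose 7H9 medium, 3 days; the read-out is not stated. Tested at 500 µM. The record gives no direction; compounds that gave an IC50 in retests scored well above the rest, so higher reads as more growth inhibition. Of about 18,000 compounds tested this way, about 1,400 (7.9%) reached 50% or more in at least one test.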

Values are the deposited “Percent Effect”, in %. How 0% and 100% were set is not recorded. Most values in the screen are low, and negative values occur. This is part of a subset picked to be rich in strong results.

Result for CC(C)(O)CCc1ccc(CN2CCNC(=O)C2)cc1 was 30.07%.
Result for CS(=O)(=O)c1cccc(S(=O)(=O)Nc2ccccc2)c1 was 35.13%.
Result for CCc1cc(C(=O)NCC2CCCNC2)cc(=O)[nH]1 (stereo unspecified) was -2.995%.
Result for O=C(NCc1cccc2c1OCO2)c1cccnc1O was 9.652%.
Result for CCOCc1nnc(C(C)N)o1 (stereo unspecified) was -0.3396%.
Result for C[C@@H]1CNC(=O)C[C@H](C)O1 was -10.81%.
Result for O=C(NC1CC1)N1CCSCC1CCO (stereo unspecified) was -3.239%.
Result for NC(=O)CSc1ccnc(SCC(N)=O)n1 was 3.945%.
Result for CNCc1cn2c(n1)CCCC2 was -3.843%.
Result for O=C(CCN1CCC[C@H]1CO)Nc1ccccc1Cl was -9.023%.
Result for COc1ccnc(CN2CCCC2CSC)c1OC (stereo unspecified) was 55.01%.
Result for Clc1cccc2nc(N3CCNCC3)oc12 was 53.39%.
Result for CS(=O)(=O)N1CC(CO)C1 was 4.241%.
Result for O=S1(=O)CCNCc2ccccc21 was -12.63%.
Result for CC1(C)C(=O)NCCN1C(=O)Cc1ccccc1Cl was 21.64%.
Result for COc1ccccc1NC(=O)c1csnn1 was 11.12%.
Result for CCC(NC(=O)CSc1ccccn1)c1ccncc1 (stereo unspecified) was 3.091%.
Result for CC[C@@H](O)CN1CCN(c2cc(OC)ccn2)CC1 was 23%.
Result for Cc1cc(NC(=O)CCNC(=O)C2CCCC2)n(C)n1 was 11.17%.
Result for c1ccc(NC2CCN(C3CCCC3)C2)nc1 (stereo unspecified) was 55.99%.
Result for CNCC(O)c1cccnc1 (stereo unspecified) was -2.347%.
Result for COc1cccc(C(=O)NCCC2=CCCN(C)C2)c1 was 1.241%.
Result for COc1cc(F)c(NC(=O)N2CCC(O)CC2)cc1F was -2.818%.
Result for CN1CN(Cc2ccc(Cl)o2)CC1=O was 84.07%.
Result for O=C(CSc1ncccc1Br)N1CCCC1 was 78.55%.
Result for CC(=O)Nc1nc(CN2CCn3ccnc3C2)cs1 was 8.425%.
Result for CCS(=O)(=O)c1ccc(CNc2cc(C)ccn2)cc1 was 1.479%.
Result for CN(C)CCNC(=O)c1cccs1 was 9.697%.
Result for CN(C)c1ccc(NC(=O)NC2CCSCC2)nc1 was -2.344%.
Result for COCCN(CCOC)c1ccnc(C#N)c1 was 3.868%.
Result for CCOc1cccc(CCN)n1 was 93.01%.
Result for O=C(NCCNC(=O)C1CCCC1)c1ccccc1O was 55.44%.
Result for CCC(COC)NC(=O)Nc1nnc2ccccn12 (stereo unspecified) was -14.6%.
Result for NC(=O)CS(=O)(=O)Cc1ccc(Cl)cc1 was 18.3%.
Result for COCCC(=O)c1ccc(F)cc1 was -4.923%.
Result for CS(=O)(=O)NCC(=O)Nc1ccc(-n2cccn2)cc1 was 22.18%.
Result for O=C(O)c1cccnc1N1CCC2(CCCNC2)C1 (stereo unspecified) was -13.77%.
Result for CCc1cc(C)c(C(=O)Nc2ccc(C(N)=O)nc2)o1 was 78.26%.
Result for OCCOc1ccc(CN2CCCCCC2CO)cc1 (stereo unspecified) was 11.46%.
Result for CC1c2cccn2CCN1CC(N)=O (stereo unspecified) was -21.53%.
Result for Cc1c(C(N)=O)nnn1-c1ccc2c(c1)OCCO2 was -2.486%.
Result for COc1ccc(S(N)(=O)=O)c(OC)c1OC was -0.06459%.
Result for Cn1nnc(NC(=O)c2ccc(C#N)cc2F)n1 was 9.184%.
Result for CCC(O)CN1CCN(C(=O)c2cccn2C)CC1 (stereo unspecified) was 11.05%.
Result for COc1cccc(CC(=O)N2CCC(N)CC2)c1 was 23.75%.

For reference, 5 entries once more:

{"structure": "O=C(NC1CC1)N1CCSCC1CCO", "stereo": "stereo unspecified", "effect": -3.239}
{"structure": "CCc1cc(C(=O)NCC2CCCNC2)cc(=O)[nH]1", "stereo": "stereo unspecified", "effect": -2.995}
{"structure": "O=C(CCN1CCC[C@H]1CO)Nc1ccccc1Cl", "effect": -9.023}
{"structure": "COc1ccnc(CN2CCCC2CSC)c1OC", "stereo": "stereo unspecified", "effect": 55.01}
{"structure": "COc1ccccc1NC(=O)c1csnn1", "effect": 11.12}